This passage reports Kd results from PMC10942258 (PLOS Biology, 2024).

By UniProt entry, the sequences of proteins in these tests, tags left out. Where a name states a change or a piece, a line headed by the entry shows the natural chain unless it says otherwise.
UniProt Q05127: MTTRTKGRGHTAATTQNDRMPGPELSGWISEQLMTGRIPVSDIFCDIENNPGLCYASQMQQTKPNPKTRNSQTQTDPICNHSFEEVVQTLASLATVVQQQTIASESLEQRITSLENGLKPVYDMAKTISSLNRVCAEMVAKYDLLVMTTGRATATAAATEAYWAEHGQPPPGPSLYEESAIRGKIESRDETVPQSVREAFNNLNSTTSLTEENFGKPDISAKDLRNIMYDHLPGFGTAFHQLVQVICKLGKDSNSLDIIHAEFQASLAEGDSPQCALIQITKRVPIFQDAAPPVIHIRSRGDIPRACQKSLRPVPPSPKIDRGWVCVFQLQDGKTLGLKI

In this assay the target is tagged full-length purified WT VP35 (for MST) (Zaire ebolavirus (EBOV)) (UniProt Q05127). The experiment in a line: MST.

Consider “unanchored K63-linked polyUb chains [2–12] (from UniProt P0CG48 1-76)”, for which the Kd came out at 15 nM.

As a reminder, the Kd is a measure of binding affinity in units of concentration. Higher therefore signals weaker binding.
